Experimental data reported in PMC5895000.

Tested on: TRP120-1TR (Ehrlichia chaffeensis)
Experiment: NMR (1H-15N HSQC titration)
Conditions: pH 5.5, 10 mM phosphate, 100 mM NaCl, 68 uM protein, 10-fold DNA, Discussion suggests micromolar range; 20 mM Tris pH 7.0 or 10 mM sodium phosphate pH 5.5, 100 mM NaCl, 1 mM DSS, 1 mM sodium azide, 10% D2O, 25 C; recombinant protein; protein details: GST removed by thrombin, 15N-labeled

“GCGATTCTCCTGCCTCAGCCTCCCTAG (double strand) [GC-rich DNA probe]”: binds.

The exact form of at least one protein or probe is not confirmed.
